Results reported in PMC12053698, “Elicitation of liver-stage immunity by nanoparticle immunogens displaying P. falciparum CSP-derived antigens” (NPJ Vaccines, 2025).

Target: the molecule itself
Test: SEC; SEC on a HiLoad 16/600 Superdex 200 pg column after Ni-NTA purification from HEK293E supernatant

B1: C25-SAmut (soluble PfCSP with 66KKNSR70 mutated to 66SSNSA70, Cys25 kept) (natural protein)
chain: not shown
notes: Plasmodium falciparum circumsporozoite protein (PfCSP), soluble recombinant form, mammalian codon-optimized; an HRV3C cleavage site stands between the Avi-Tag and the His-tag; source: HEK293E, transient transfection, purified from culture supernatant (Ni-NTA, SEC)
- stoichiometry N: 2
